# Share of PSTVd loop 15 variants by leaf site

Data from the supplement of Wu et al. 2024, doi:10.1371/journal.ppat.1012142.

PSTVd intermediate strain, loop 15: wild type GGAAACCGCUACUAC, pool pattern GGAAACCGNNNNNNC; upper and lower strand joined, each 5' to 3', the first 7 letters being the upper strand, closing pairs included.

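A pool of all variants was put on leaves of three Nicotiana benthamiana plants. Progeny were sequenced from the inoculated region (day 5), the margin of the inoculated leaf (day 10) and systemic leaves (day 12).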

Numbers give reads per thousand; 0 = not seen among the reads, higher = more abundant.
Each value is the mean of three plants.
"Pool" is the share in the plasmid pool used as inoculum, on the same scale.
The inoculated region was read from the minus strand, the other sites from the plus strand.
Wild type was 33.9 per thousand in the pool and the most common sequence in every sample (inoculated region 202, 200, 159; leaf margin 724, 746, 710; systemic leaves 856, 883, 880).

- GGAAACCGAGGGUAC (pool 0.128) -> inoculated region 0.301; leaf margin 0.147; systemic leaves 0.0287
- GGAAACCGUAUUGGC (pool 0.192) -> inoculated region 0.102; leaf margin 0; systemic leaves 0.00537
- GGAAACCGUCAUUAC (pool 0.288) -> inoculated region 0.272; leaf margin 0.146; systemic leaves 0.0571
- GGAAACCGCUGGGUC (pool 0.288) -> inoculated region 0.105; leaf margin 0; systemic leaves 0.00537
- GGAAACCGCCUACCC (pool 0.240) -> inoculated region 0.0984; leaf margin 0.00539; systemic leaves 0.00537
- GGAAACCGCCCCUAC (pool 0.224) -> inoculated region 0.334; leaf margin 0.123; systemic leaves 0.0641
- GGAAACCGUUAGGGC (pool 0.144) -> inoculated region 0.247; leaf margin 0.125; systemic leaves 0.0462
- GGAAACCGAUGCUCC (pool 0.160) -> inoculated region 0.186; leaf margin 0.0128; systemic leaves 0.0104
- GGAAACCGUUGCUUC (pool 0.272) -> inoculated region 0.341; leaf margin 0.107; systemic leaves 0.0107
- GGAAACCGUCAACCC (pool 0.272) -> inoculated region 0.0578; leaf margin 0; systemic leaves 0
- GGAAACCGGCGAGCC (pool 0.192) -> inoculated region 0.0874; leaf margin 0.00539; systemic leaves 0
- GGAAACCGCUCGUCC (pool 0.176) -> inoculated region 0.288; leaf margin 0.105; systemic leaves 0.0215
- GGAAACCGCACAUAC (pool 0.288) -> inoculated region 0.361; leaf margin 0.110; systemic leaves 0.0382
- GGAAACCGUAUCCCC (pool 0.112) -> inoculated region 0.0974; leaf margin 0.00668; systemic leaves 0.00537
- GGAAACCGAAUUACC (pool 0.240) -> inoculated region 0.0960; leaf margin 0.0195; systemic leaves 0
- GGAAACCGGAAGAAC (pool 0.240) -> inoculated region 0.353; leaf margin 0.112; systemic leaves 0.0992
- GGAAACCGACUCUUC (pool 0.208) -> inoculated region 0.0733; leaf margin 0.0200; systemic leaves 0
- GGAAACCGCCAUUAC (pool 0.336) -> inoculated region 0.451; leaf margin 0.0954; systemic leaves 0.0388
- GGAAACCGAUCAGCC (pool 0.336) -> inoculated region 0.0778; leaf margin 0.0316; systemic leaves 0
- GGAAACCGGAGCGCC (pool 0.160) -> inoculated region 0.0956; leaf margin 0.00668; systemic leaves 0
- GGAAACCGGCGCGCC (pool 0.256) -> inoculated region 0.0867; leaf margin 0.0121; systemic leaves 0.00760
- GGAAACCGAAACCGC (pool 0.224) -> inoculated region 0.0984; leaf margin 0.0195; systemic leaves 0
- GGAAACCGCUACUCC (pool 2.27) -> inoculated region 1.55; leaf margin 1.82; systemic leaves 1.11
- GGAAACCGUACAUGC (pool 0.144) -> inoculated region 0.114; leaf margin 0.0121; systemic leaves 0
- GGAAACCGUCCUGUC (pool 0.272) -> inoculated region 0.0957; leaf margin 0.0121; systemic leaves 0
- GGAAACCGACAAGCC (pool 0.224) -> inoculated region 0.0873; leaf margin 0.0202; systemic leaves 0
- GGAAACCGGCCCCCC (pool 0.256) -> inoculated region 0.0743; leaf margin 0.00668; systemic leaves 0
- GGAAACCGACAUACC (pool 0.256) -> inoculated region 0.0999; leaf margin 0.00668; systemic leaves 0
- GGAAACCGAGCACUC (pool 0.176) -> inoculated region 0.227; leaf margin 0.00668; systemic leaves 0.0107
- GGAAACCGGUUGUGC (pool 0.176) -> inoculated region 0.142; leaf margin 0; systemic leaves 0
- GGAAACCGUAUGCAC (pool 0.240) -> inoculated region 0.0514; leaf margin 0.00539; systemic leaves 0
- GGAAACCGCUUAAAC (pool 0.208) -> inoculated region 0.111; leaf margin 0.0108; systemic leaves 0

Extract of 2 entries:

* GGAAACCGCCAUUAC (pool 0.336) = inoculated region 0.451; leaf margin 0.0954; systemic leaves 0.0388
* GGAAACCGUCAUUAC (pool 0.288) = inoculated region 0.272; leaf margin 0.146; systemic leaves 0.0571

The authors trace changes outside the varied positions to PCR and sequencing errors or to mutation in the plant; presence does not show that a variant is infectious alone.
With 43,870-66,106 reads a sample, very low values are single reads.